The text below walks through data of PMC10524804.

Protein sequences can lack the tags named with them.

The target of data set [1] is T1, CpxR (UniProt A0A0H3GGB5).
T1 sequence: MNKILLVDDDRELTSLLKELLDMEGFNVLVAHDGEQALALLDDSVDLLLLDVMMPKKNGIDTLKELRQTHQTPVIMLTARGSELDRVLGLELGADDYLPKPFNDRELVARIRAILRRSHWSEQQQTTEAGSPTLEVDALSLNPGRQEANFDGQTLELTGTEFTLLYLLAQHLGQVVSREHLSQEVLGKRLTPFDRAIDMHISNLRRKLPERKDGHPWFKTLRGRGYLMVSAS
The data set can be described thus: EMSA. As to conditions: EMSA: Beyotime binding buffer (poly(dI-dC), DTT, glycerol, EDTA, NaCl, MgCl2, Tris), room temp, 2 pmol probe, recombinant protein, probe letters rebuilt from the primers and the genome.

Data set [2] deals with T1, CpxR. The data set can be described thus: ITC. As to conditions: 0.1 uM protein, 0.01 uM DNA, Kd shown only in figure; ITC: HEPES pH 7.4, 25 C; recombinant protein; probe letters rebuilt from the primers and the genome.
Data set [3] concerns the target T1, CpxR. The data set can be described thus: DNase I footprinting. As to conditions: footprinting: 50 mM Tris-HCl pH 8.0, 100 mM KCl, 2.5 mM MgCl2, 0.2 mM DTT, 10% glycerol, 2 ug salmon sperm DNA, 25 C, recombinant protein, probe letters rebuilt from the primers and the genome.
Setting [4] is: label: 5'-FAM on PtraY-FAM-F strand.

On to “CAACGATATTCCTTGTTTGAAGGTGGAGCTAGGTGTAGCGGCCGGATGTAATCAGGCCGCTACAGCTGGGATTATCACCGAGCTTGAAAAACGAATCAGGTCGGCGTTCATGGGTCGGCCACCTCGCCTGACCTCGGCATCCACGTTACGGACGGCCTCAGGAAGTCCTGGCCAAGCCCCGACTATTGGGGCGCGAAGATAGCACCGAGGGTACGCCGGTGTCAACACCAACTGAAAACTGACCCACTTTACCCCTGAATCACCAAAGTAATACTGACCCACCTGGATCATTCGGGTTTGGAATTTTTCCTGACCACTCCCGCCTTCCTCTTGTCCTTCAAGCGGTAGCTTTC (double strand) [PblaKPC Tn4401b (ST258), FAM]”, for which the binding result in the data set with CpxR [1] (label: 5'-FAM on reverse strand (PkpcTn4401b-FAM-R)) is on record as “binds”.
As to “CAACGATATTCCTTGTTTGAAGGTGGAGCTAGGTGTAGCGGCCGGATGTAATCAGGCCGCTACAGCTGGGATTAGGGGTCTGACGCTCAGTGGAACGAAAACTCACGTTAAGAAGTCATTTTTCAATATTATTGAAGCATTTATCAGGGTTATTGTCTCATGAGCGGATACATATTTGAATGTATTTAGAAAAATAAACAAATAGGGGTTCCGCGCACATTTCCCCGAAAAGTGCCACCTGACGTCTAAGAAACCATTATTATCATGACATTAACCTATATGTCAAGACCCGGCTGGTTATACACGCGTTTCCTGAACAATTCAGGGCGTTTTTCATGCCATTCCTTGAGCGCCTGAACGGGTGTTTTGTGTTGGAGCGCGCGTTGCGGAATGCTGTGGTTGT (double strand) [PblaKPC (Tn1721, ST11), unlabeled]”, the binding result with CpxR [2] is “binds”.
Consider “CTGCTTCTGTCTTTTGCTTTGATGAGTCGACGATTAGTTTCTTCATCTAATTTTAAAAGCACATTTTTTCCAGGCGCAGGTCGTGCGTTGCTCCTAATCGCTCTTTCCAATCGACCTCCAAAGTAAGATTACCAACCTTTAATAAATCTTACATTGGAGGATTTAAAAGTAAACAAACTAAGGAGAAATCTTGAGTAAATTATTTTCACAAATCAAAAGTACCGATGGTACTTTTGATTTAACAAAAAATTAACACCGTCTTTTAATATCGAAACCACATTCGATATAAACTTTCCATAACTTAGAGTATAGATCGATGACATTATGATATAGTCACGATCATCAAAGCTCAGTTCCTTTTTTATTTTACTAACTGTATTTTTTGAGGTTTGCACCCCAACACCTGTAATCTTAGAAATAGATGCATGAGAAAACCCAACCGCATACAGATTAAAGATAGCCCAGTCAGACTTTGCTGAACGCTGAATTCTTTCGATATATCTTTGCATCTTTATAGAAAAGTCATTGTATTCCATTGAAGGATGAGGTATCGGTTCATCTTCATTTATAAAAACCCATTTACTGTATGTATCTTCATTAATCGAGAACGTTTCAATAAAAACAGTCCAAAGTGAACCTGCCAACCAAATATTTTTAACAAGTACAGCAGAACCTTCTGAAAACGATTTCAGTTCTGACTGCATC (double strand) [PtraY, FAM]”, for which the binding result with CpxR [1] (setting [4]) and with CpxR [3] (setting [4]) was “binds” in each case.
As to “CAACGATATTCCTTGTTTGAAGGTGGAGCTAGGTGTAGCGGCCGGATGTAATCAGGCCGCTACAGCTGGGATTAGGGGTCTGACGCTCAGTGGAACGAAAACTCACGTTAAGAAGTCATTTTTCAATATTATTGAAGCATTTATCAGGGTTATTGTCTCATGAGCGGATACATATTTGAATGTATTTAGAAAAATAAACAAATAGGGGTTCCGCGCACATTTCCCCGAAAAGTGCCACCTGACGTCTAAGAAACCATTATTATCATGACATTAACCTATATGTCAAGACCCGGCTGGTTATACACGCGTTTCCTGAACAATTCAGGGCGTTTTTCATGCCATTCCTTGAGCGCCTGAACGGGTGTTTTGTGTTGGAGCGCGCGTTGCGGAATGCTGTGGTTGT (double strand) [PblaKPC (Tn1721, ST11), FAM]”, the binding result is given as “binds” in the data set with CpxR [1] (label: 5'-6-FAM on forward strand (Pkpc403-FAM-F)); “binds” in the data set with CpxR [3] (two protected regions, R1 and R2, label: 5'-6-FAM on forward strand (Pkpc403-FAM-F)).
